A mixed list of measured activities; the numbers were collected in NIAID ChemDB.

Shared fields: cytotoxicity tests; cell line: H9; read-out: CC50

CCn: concentration that lowers growth or viability of the cells by n%. Rows are shuffled and stem from different studies.

| smiles | result |
|---|---|
| CC1(C)Oc2ccc3cc(CBr)c(=O)oc3c2[C@@H](OC(=O)C23CCC(C)(C(=O)O2)C3(C)C)[C@H]1OC(=O)C12CCC(C)(C(=O)O1)C2(C)C | 3.38 µM |
| C=C(C)[C@@H]1CC[C@]2(COC(=O)C34CC5CC(CC(C5)C3)C4)CC[C@]3(C)[C@H](CC[C@@H]4[C@@]5(C)CC[C@H](OC(=O)CC(C)(C)CC(=O)O)C(C)(C)[C@@H]5CC[C@]43C)[C@@H]12 | >133.9 µM |
| O=C(O[C@@H]1Cc2c(O)cc(O)cc2O[C@@H]1c1ccc(O)c(O)c1)c1cc(O)c(O)c(O)c1 | >25 µM |
| CC1(C)Oc2ccc3ccc(=O)oc3c2[C@H](OC(=O)C23CCC(C)(C(=O)O2)C3(C)C)[C@H]1OC(=O)C12CCC(C)(C(=O)O1)C2(C)C | >6.4 µM |
| CC(C)C(NC(=O)C[C@@H]1O[C@@H]1[C@H](Cc1ccccc1)NC(=O)[C@H](CS(C)(=O)=O)NC(=O)c1ccc2ccccc2n1)C(C)C | >100 µM |
| C[C@H](CCC(=O)NCC(=O)N[C@@H](Cc1cc(I)c(O)cc1I)C(=O)O)[C@H]1CC[C@H]2[C@@H]3[C@H](O)CC4C[C@H](O)CC[C@]4(C)[C@H]3C[C@H](O)[C@]12C | >500 µg/mL |
| C=C(C)[C@@H]1CC[C@]2(C(=O)O)CC[C@]3(C)[C@H](CC[C@@H]4[C@@]5(C)CC[C@H](O)C(C)(C)[C@@H]5CC[C@]43C)[C@@H]12 | 12.9 µM |
| COc1cc(=O)oc2c3c(ccc12)OC(C)(C)[C@H](OC(=O)C12CCC(C)(C(=O)O1)C2(C)C)[C@@H]3OC(=O)C12CCC(C)(C(=O)O1)C2(C)C | >153 µM |
| CC(C)[C@@H]1CC[C@]2(C(=O)OCc3ccccc3)CC[C@]3(C)[C@H](CC[C@@H]4[C@@]5(C)CC[C@H](O)C(C)(C)[C@@H]5CC[C@]43C)[C@@H]12 | >180 µM |
| CC(CC(=O)O)CC(=O)OC[C@]12CC[C@@H](C(C)C)[C@@H]1[C@H]1CC[C@@H]3[C@@]4(C)CC[C@H](OC(=O)CC(C)CC(=O)O)C(C)(C)[C@@H]4CC[C@@]3(C)[C@]1(C)CC2 | 19.2 µM |
| CC(C)C(NC(=O)C[C@@H]1O[C@@H]1[C@H](Cc1ccccc1)NC(=O)[C@@H](NC(=O)c1ccc2ccccc2n1)C(C)(C)S(C)(=O)=O)C(C)C | >100 µM |
| C=C(C)[C@@H]1CC[C@]2(C(=O)OC(=O)N3CCOCC3)CC[C@]3(C)[C@H](CC[C@@H]4[C@@]5(C)CC[C@H](O)C(C)(C)[C@@H]5CC[C@]43C)[C@@H]12 | 11.4 µM |
| C=C(CO)[C@@H]1CC[C@]2(CO)CC[C@]3(C)[C@H](CC[C@@H]4[C@@]5(C)CC[C@H](O)C(C)(C)[C@@H]5CC[C@]43C)[C@@H]12 | >140.5 µM |
| CC(C)[C@@H]1CC[C@]2(C(=O)O)CC[C@]3(C)[C@H](CC[C@@H]4[C@@]5(C)CC[C@H](OC(=O)CCC(=O)O)C(C)(C)[C@@H]5CC[C@]43C)[C@@H]12 | 13.4 µM |
| CC(C)(C)c1ccc(C(=O)OC2c3c(ccc4ccc(=O)oc34)OC(C)(C)C2OC(=O)c2ccc(C(C)(C)C)cc2)cc1 | 3.08 µM |
| C[C@H](CCC(=O)N[C@@H](Cc1cc(I)c(O)cc1I)C(=O)O)[C@H]1CC[C@H]2[C@@H]3CCC4C[C@H](O)CC[C@]4(C)[C@H]3C[C@H](O)[C@]12C | >500 µg/mL |
| CC(C)C(NC(=O)C[C@@H]1O[C@@H]1[C@H](Cc1ccccc1)NC(=O)[C@@H](NC(=O)COc1cccc2cnccc12)C(C)(C)S(C)(=O)=O)C(C)C | >100 µM |
| C=C(C)[C@@H]1CC[C@]2(COC(=O)CC3(CC(=O)O)CCCC3)CC[C@]3(C)[C@H](CC[C@@H]4[C@@]5(C)CC=CC(C)(C)[C@@H]5CC[C@]43C)[C@@H]12 | 36.2 µM |
| CC(=O)OC1c2c(ccc3ccc(=O)oc23)OC(C)(C)C1OCc1ccccc1 | 87.4 µM |
| CCC(O)C(N)C(=O)O | >750 µM |
| O=C(OC1[C@H](O)CC(O)(C(=O)O)C[C@H]1O)c1cc(O)c(O)c(O)c1 | 80 µM |
| CC(C)[C@@H](NC(=O)C[C@@H]1O[C@@H]1[C@H](Cc1ccccc1)NC(=O)[C@@H](NC(=O)c1cc(=O)c2ccccc2o1)C(C)(C)S(C)(=O)=O)c1ccccc1 | >100 µM |
| COc1cc([C@H]2c3c(cc(OC)c(OC)c3OC)C[C@H]3CSC[C@@H]32)cc(OC)c1OC | 24.5 µM |
| COc1cc2ccc3c(c2oc1=O)[C@@H](OC(=O)C12CCC(C)(C(=O)O1)C2(C)C)[C@@H](OC(=O)C12CCC(C)(C(=O)O1)C2(C)C)C(C)(C)O3 | >153 µM |
| O=C(O[C@@H]1O[C@H](CO)[C@@H](O)[C@H](O)[C@H]1O)c1cc(O)c(O)c(O)c1 | 80 µM |
| CC(C)[C@@H]1CC[C@]2(C(=O)O)CC[C@]3(C)[C@H](CC[C@@H]4[C@@]5(C)CC[C@H](OC(=O)C(C)(C)C)C(C)(C)[C@@H]5CC[C@]43C)[C@@H]12 | 83 µM |
| O=C(O[C@@H]1[C@H](c2c(O)cc(O)c3c2O[C@H](c2ccc(O)c(O)c2)[C@H](OC(=O)c2cc(O)c(O)c(O)c2)C3)c2c(O)cc(O)c([C@H]3c4c(O)cc(O)cc4O[C@H](c4ccc(O)c(O)c4)[C@@H]3OC(=O)c3cc(O)c(O)c(O)c3)c2O[C@@H]1c1ccc(O)c(O)c1)c1cc(O)c(O)c(O)c1 | >25 µM |
| C=C(C)[C@@H]1CC[C@]2(C(=O)OCC(=O)c3ccccc3)CC[C@]3(C)[C@H](CC[C@@H]4[C@@]5(C)CC[C@H](NC(=O)CC(C)(C)CC(=O)O)C(C)(C)[C@@H]5CC[C@]43C)[C@@H]12 | 23.6 µM |
| O=C(/C=C/c1ccc(O)c2c1[C@H](C(=O)O[C@H](Cc1ccc(O)c(O)c1)C(=O)O)[C@@H](c1ccc(O)c(O)c1)O2)O[C@H](Cc1ccc(O)c(O)c1)C(=O)O | >25 µM |
| COc1c(OCc2ccccc2)c(OCc2ccccc2)cc(CO)c1-c1c(CO)cc(OCc2ccccc2)c(OCc2ccccc2)c1OC | >100 µg/mL |
| C=C(C)[C@@H]1CC[C@]2(CO)CC[C@]3(C)[C@H](CC[C@@H]4[C@@]5(C)CC[C@@H](O)C(C)(C)[C@@H]5CC[C@]43C)[C@@H]12 | 12.3 µM |
| CC(C)[C@@H]1CC[C@]2(C(=O)O)CC[C@]3(C)[C@H](CC[C@@H]4[C@@]5(C)CC[C@H](OC(=O)C67CCC(C)(C(=O)O6)C7(C)C)C(C)(C)[C@@H]5CC[C@]43C)[C@@H]12 | 1 µM |
| CC(C)[C@H](Cc1ccccc1)NC(=O)C[C@@H]1O[C@@H]1[C@H](Cc1ccccc1)NC(=O)[C@@H](NC(=O)OCc1cccnc1)C(C)(C)S(C)(=O)=O | >100 µM |
| O=C1OC2C(COC(=O)c3cc(O)c(O)c(O)c3)OC(OC(=O)c3cc(O)c(O)c(O)c3)C(OC(=O)c3cc(O)c(O)c4c3[C@@H]3C1=CC(=O)C(O)(O)C3(O)O4)C2OC(=O)c1cc(O)c(O)c(O)c1 | 40 µM |
| C=C(C)[C@@H]1CC[C@]2(C=O)CC[C@]3(C)[C@H](CC[C@@H]4[C@@]5(C)CCC(=O)C(C)(C)[C@@H]5CC[C@]43C)[C@@H]12 | 49 µM |
| Cc1cn([C@H]2C[C@H](N=[N+]=[N-])[C@@H](CO)O2)c(=O)[nH]c1=O | 1873 µM |
| COC1C(OC(=O)c2cccc(Cl)c2)c2c(ccc3ccc(=O)oc23)OC1(C)C | 81.94 µM |
| COc1cc([C@H]2c3c(cc4c(c3OC)OCO4)C[C@H]3COC(=O)[C@@H]32)cc(C)c1OC | 194 µM |
| CC(C)[C@@H](NC(=O)C[C@@H]1O[C@@H]1[C@H](Cc1ccccc1)NC(=O)[C@@H](NC(=O)CN1CCCC1)C(C)(C)S(C)(=O)=O)c1ccccc1 | >100 µM |
| C=C(C)[C@@H]1CC[C@]2(C(=O)O)CC[C@]3(C)[C@H](CC[C@@H]4[C@@]5(C)CC[C@H](OC(=O)CC(C)(C)CC(=O)O)C(C)(C)[C@@H]5CC[C@]43C)[C@@H]12 | 4.5 µM |
| CC1(C)Oc2ccc3ccc(=O)oc3c2[C@@H](OC(=O)C23CCC(C)(C(=O)O2)C3(C)C)[C@H]1OC(=O)C12CCC(C)(C(=O)O1)C2(C)C | 35 µM |
| C=C(COC(=O)CC(C)(C)CC(=O)O)[C@@H]1CC[C@]2(COC(=O)CC(C)(C)CC(=O)O)CC[C@]3(C)[C@H](CC[C@@H]4[C@@]5(C)CC[C@H](OC(=O)CC(C)(C)CC(=O)O)C(C)(C)[C@@H]5CC[C@]43C)[C@@H]12 | 17.5 µM |
| CC(=O)N[C@H](C(=O)N[C@@H](Cc1ccccc1)[C@H]1O[C@H]1CC(=O)N[C@@H](Cc1ccccc1)C(C)C)C(C)(C)S(C)(=O)=O | >100 µM |
| O=C(OC[C@H]1O[C@@H](OC(=O)c2cc(O)c(O)c(O)c2)[C@H](OC(=O)c2cc(O)c(O)c(O)c2)[C@@H](OC(=O)c2cc(O)c(O)c(O)c2)[C@@H]1OC(=O)c1cc(O)c(O)c(O)c1)c1cc(O)c(O)c(O)c1 | 19 µM |
| CCOC(=O)c1c(Br)c(OC)c2c(c1-c1c3c(c(OC)c(Br)c1C(=O)O)OCO3)OCO2 | >100 µg/mL |
| CCC(C)C(=O)OC1c2c(ccc3ccc(=O)oc23)OC(C)(C)C1OC(=O)C(C)CC | 100.8 µM |
| O=C1OCC2OC(O)C(O)C(O)C2OC(=O)c2cc(O)c(O)c(O)c2-c2c(O)c(O)c3oc(=O)c4c(c(O)c(O)c5oc(=O)c2c3c54)-c2c1cc(O)c(O)c2O | >100 µg/mL |
| CC1(C)Oc2ccc3ccc(=O)oc3c2[C@@H](OC(=O)C23CCC(C)(C(=O)O2)C3(C)C)[C@@H]1OC(=O)C12CCC(C)(C(=O)O1)C2(C)C | >32 µM |

The last 3 rows once more:

smiles | result
CCC(C)C(=O)OC1c2c(ccc3ccc(=O)oc23)OC(C)(C)C1OC(=O)C(C)CC | 100.8 µM
O=C1OCC2OC(O)C(O)C(O)C2OC(=O)c2cc(O)c(O)c(O)c2-c2c(O)c(O)c3oc(=O)c4c(c(O)c(O)c5oc(=O)c2c3c54)-c2c1cc(O)c(O)c2O | >100 µg/mL
CC1(C)Oc2ccc3ccc(=O)oc3c2[C@@H](OC(=O)C23CCC(C)(C(=O)O2)C3(C)C)[C@@H]1OC(=O)C12CCC(C)(C(=O)O1)C2(C)C | >32 µM